Experimental data: PubChem BioAssay AID1259414 (Drosophila RNAi Screening Center, 2018)
Screen: 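Host factors increasing or decreasing Wolbachia levels in cultured fly cells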 (primary screen). System: Drosophila JW18 cells infected with Wolbachia. Reagents: long dsRNA against Drosophila genes, 0.25 µg dsRNA per well of a 384-well plate. Time to read-out: 5 days. Conditions: cells persistently infected with Wolbachia before knock-down; no added drug. Measured: 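Automated imaging of bacterial rRNA staining divided by host cell count, reported as plate-normalised robust z-score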. Direction: Wolbachia per cell robust z: higher = more Wolbachia per host cell than the plate typical. Active means: 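Active if absolute robust z reaches 1.5 in two or more of three replicates, leaving out multi- or no-target dsRNAs, genes unexpressed in JW18 and A1 wells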.
The deposit covers about 24,000 reagents; shown is an unselected part of those that have a named target and a result. Over the whole deposit, about 1,210 (5%) were called active. 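Inactive calls also include excluded dsRNAs with several or no targets, genes unexpressed in JW18, and well A1, regardless of score.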 Reagents against one gene are numbered here. Reagent sequences are not shown.

gene | reagent no. | Wolbachia per cell robust z, rep 1 | Wolbachia per cell robust z, rep 2 | Wolbachia per cell robust z, rep 3 | outcome
CG15047 | 1 | 0.0407 | 0.524 | 0.344 | inactive
CG15047 | 2 | -0.184 | 0.204 | 0.903 | inactive
CG15047 | 3 | -0.364 | -1.6 | -0.164 | inactive
eIF3e | 1 | 1.82 | -0.864 | 0.623 | inactive
qless | 1 | -1.38 | -2.45 | -3.37 | active
qless | 2 | -0.026 | 0.372 | -1.07 | inactive
lute | 1 | 0.356 | 1.1 | 1.04 | inactive
lute | 2 | -5.95 | -2.36 | -4.36 | active
lute | 3 | -2.1 | 1.61 | 0.347 | inactive
lute | 4 | -5.99 | 0.245 | -1.01 | inactive
CG5151 | 1 | 0.556 | 0.417 | -0.562 | inactive
CG5151 | 2 | -3.57 | -0.881 | -2.96 | inactive
CG5151 | 3 | 2.51 | 1.83 | 2.61 | inactive
CG4592 | 1 | 0.0746 | 0.672 | 0.221 | inactive

Continued (3 carried over from the part before).
gene | reagent no. | Wolbachia per cell robust z, rep 1 | Wolbachia per cell robust z, rep 2 | Wolbachia per cell robust z, rep 3 | outcome
CG5151 | 2 | -3.57 | -0.881 | -2.96 | inactive
CG5151 | 3 | 2.51 | 1.83 | 2.61 | inactive
CG4592 | 1 | 0.0746 | 0.672 | 0.221 | inactive
mTerf5 | 1 | -0.734 | -1.29 | -0.367 | inactive
mTerf5 | 2 | 0.668 | -0.341 | 0.35 | inactive
hzg | 1 | 1.59 | 0.129 | 0.537 | inactive
hzg | 2 | -0.619 | 0.533 | -0.161 | inactive
Rhau | 1 | 0.334 | -0.284 | -1.3 | inactive
Rhau | 2 | 0.173 | 0.284 | 1.86 | inactive
CG7458 | 1 | 0.595 | 0.852 | 0.541 | inactive
CG7458 | 2 | -1.53 | -1.31 | 0.443 | inactive
CG9643 | 1 | 1.21 | 0.715 | 1.09 | inactive
CG9643 | 2 | 1.08 | -0.55 | -1.38 | inactive
CG3708 | 1 | -0.721 | -2.86 | -0.835 | inactive
CG7377 | 1 | -3.53 | -0.566 | -1.14 | inactive
Ufd1 | 1 | 0.967 | 1.48 | -7.78 | inactive
CCDC151 | 1 | -3.63 | 0.998 | -1.04 | inactive
CCDC151 | 2 | 0.349 | -1.35 | -0.065 | inactive
